{"source": "patent US11713302B2", "about": "“Sulfonamide benzamide derivative and preparation method and application thereof” (WEIFANG MEDICAL UNIVERSITY, priority 2021, dated 2023)", "data": [{"tested_on": "HBV DNA", "assay": "HBV DNA activity inhibition assay (quantitative PCR) in HepAD38 cells", "type": "cell-based, hepatitis B virus (HBV)", "details": "selectivity index SI=CC50/IC50", "protocol": "HBV stably transfected hepatocellular carcinoma cell line, HepAD38, was able to secrete HBV viral particles (containing HBsAg, HBeAg and DNA) when the cells were cultured. The amount of HBsAg and HBeAg secreted by the cells and the DNA produced varied under the intervention of anti-HBV target compounds, so the antiviral activity of the sample drug could be calculated by measuring the amount of HBsAg and HBeAg secreted by the cells into the culture supernatant and the HBV DNA produced, with reference to the amount in the unspiked control. Using entecavir as a positive control drug, the concentration of the drug at 50% inhibition of HBV DNA was measured by quantitative PCR at the value of IC50; the concentration of the sample drug causing 50% cell death was measured by CCK-8 at the value of CC50, and the “selectivity index” of the compound to be tested was calculated. SI=CC50/IC50. (1) Cytotoxicity assay\n(2) HBV DNA Activity Inhibition Assay (Quantitative PCR Method)\nHepAD38 cells were cultured in 96-well cell culture plate for 24 hours, then 10 μM, 2 μM, 0.4 μM, 0.08 μM and […] drug-containing medium was added and the cells were incubated for 10 days (changed every 2 days), the supernatant was collected and the supernatant HBV DNA content was measured by quantitative PCR.", "values": [{"smiles": "CC(C)NS(=O)(=O)c1cc2c(c(C(=O)Nc3ccc(F)c(Cl)c3)c1)OCCO2", "note": "[Compound 5k]", "SI": ">100"}, {"smiles": "O=C(Nc1ccc(F)c(Cl)c1)c1cc(S(=O)(=O)NC2CCCCC2)cc2c1OCCO2", "note": "[Compound 5c]", "SI": ">100"}, {"smiles": "C=C1[C@H](CO)[C@@H](O)C[C@@H]1n1cnc2c(=O)[nH]c(N)nc21", "note": "[ETV, entecavir, reference compound]", "SI": ">100"}, {"smiles": "O=C(Nc1ccc(F)c(Cl)c1)c1cc(S(=O)(=O)NC2CCCC2)cc2c1OCCO2", "note": "[Compound 5b]", "SI": ">100"}]}]}
